Source: PMC12495412, “Coumarin/nitrogen-bearing heterocyclic hybrid-loaded electrospun PMMA/PVP nanofibrous scaffolds for accelerating topical wound healing rates: synthesis and in vitro bio-evaluation” (RSC Advances, 2025)

Experiments:
A549 cells = assay: MTT anticancer assay; assay type: cell-based, human; details: IC50 Wi-38 / IC50 A549
Description: (§1) MTT assay: the normal cell line (Wi-38), colon cancer (Caco-2), lung cancer (A549), and breast cancer (MDA) cell lines were sourced from ATCC, USA. All different cell lines were cultivated and preserved in DMEM medium (SERANA, Germany), accompanied by 10% FBS (Gibco, USA) and 1% Pen/Strep solution (Lonza, USA). The newly prepared derivatives at various doses were considered for their anticancer activity and their safety on normal cells, applying MTT (3-[4, 5-dimethylthiazol]-2, 5-diphenyltetrazolium bromide) methods.[22] At first, all normal and cancer cell lines (1.0 ×10^4) were inoculated in 4 antiseptic 96-well tissue culture microplates and incubated for 24 h in a CO2 incubator. After cell attachments, the prepared derivatives were added to both normal Wi-38 cells at diverse concentrations of (6.25–200 μg mL^−1, 2-fold) and cancer cells at different concentrations of (3.125–100 μg mL^−1, 2-fold) in triplicate and incubated for another 48 h at 37 °C in a CO2 incubator with an adjusted concentration of 5%. After that, the treated cells were cleaned three times with PBS to remove debris and dead cells. Next, 200 μL of 0.5 mg mL^−1 MTT dye solution in PBS was mixed in each well, and the cells were further kept for 3 h at 37 °C in a 5% CO2 incubator. After that, MTT was removed and 200 μL of DMSO was added to each well. The optical density (OD) was recorded at 570 nm via a microplate reader (B.M.G. LabTech, Germany). Basic cells (untreated) were utilized as negative control cells, and 5-fluorouracil (5-FU) was included as a standard chemotherapy drug. The qualified cell viability (%) was evaluated as in equation (eqn (1)):1 Relative cell viability (%) = […] A1 is the OD of the examined derivative, A0 is the OD of the standard, and AU is the OD of the untreated cells.
(§2) Anticancer activity assay: the anticancer effect of each derivative was assessed by evaluating the half-maximal inhibitory concentration (IC50) value via the GraphPad Prism 7.0 software. However, SI (selective index) values of each derivative were estimated by splitting the IC50 value of healthy cells by the IC50 value of malignant cells, as previously reported.[23] The effects of the created derivatives on the morphology of MDA cells were evaluated at IC50 doses and captured by phase-contrast microscopy (Olympus, Germany) in comparison to untreated control cells.

MDA cells = assay: MTT anticancer assay; assay type: cell-based, human; details: IC50 Wi-38 / IC50 MDA
Description: as §1, §2

SMILES: O=C(Nc1ccc(Nc2c3ccccc3nc3ccccc23)cc1)c1cc2ccccc2oc1=O [Compound B, N-(4-(acridin-9-ylamino)phenyl)-2-oxo-2H-chromene-3-carboxamide]
- SI A549 (A549 cells): 18.09 ± 1.57
- SI MDA (MDA cells): 29.58 ± 2.56

SMILES: O=c1[nH]cc(F)c(=O)[nH]1 [Compound 5-FU, 5-fluorouracil, reference compound]
- SI A549 (A549 cells): 0.92 ± 0.03
- SI MDA (MDA cells): 0.89 ± 0.02

SMILES: Nc1ccc(Nc2ccnc3cc(Cl)ccc23)cc1 [Compound A1]
- SI A549 (A549 cells): 5.47 ± 0.44
- SI MDA (MDA cells): 11.76 ± 0.94

SMILES: Cc1ccc(-c2nnc(Nc3ccc(NC(=O)c4cc5ccccc5oc4=O)cc3)c3ccccc23)cc1 [Compound C, 2-oxo-N-(4-((4-(p-tolyl)phthalazin-1-yl)amino)phenyl)-2H-chromene-3-carboxamide]
- SI A549 (A549 cells): 11.25 ± 1.04
- SI MDA (MDA cells): 22.59 ± 1.93

SMILES: O=C(Nc1ccc(Nc2ccnc3cc(Cl)ccc23)cc1)c1cc2ccccc2oc1=O [Compound A, N-(4-((7-chloroquinolin-4-yl)amino)phenyl)-2-oxo-2H-chromene-3-carboxamide]
- SI A549 (A549 cells): 12.11 ± 1.05
- SI MDA (MDA cells): 25.44 ± 2.21

SMILES: Nc1ccc(Nc2c3ccccc3nc3ccccc23)cc1 [Compound B1]
- SI A549 (A549 cells): 11.52 ± 0.85
- SI MDA (MDA cells): 21.86 ± 1.62

SMILES: Cc1ccc(-c2nnc(Nc3ccc(N)cc3)c3ccccc23)cc1 [Compound C1]
- SI A549 (A549 cells): 9.17 ± 0.79
- SI MDA (MDA cells): 13.78 ± 1.21
